RC index of single-base changes in HIV-1 non-coding ends

Data from the supplement of Al-Mawsawi et al. 2014, doi:10.1186/s12977-014-0124-6.

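Seven fragments of pNL4-3 were mutated by error-prone PCR, and each virus pool was passaged in CEM T cells. Sequencing gave the RC index: frequency after two rounds over frequency in the input plasmid.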

Positions lie in the non-coding 5' end or the 3' LTR of the genome. Changes in the 5' U3 are not copied into viral RNA and those in the 3' R are mostly lost on reverse transcription, so a low index there need not show harm (not discussed in the paper).

Values are the RC index; higher means better tolerated. The authors read about 0.1 or less as lethal, 0.1-0.2 as attenuated and 0.2 or more as tolerated. Input reads are the counts in the plasmid library.

base | region | input reads | RC
A755G | 5' U5/leader | 489 | 0.190
G9435A | 3' U3 | 547 | 1.03
T283C | 5' U3 | 698 | 0.282
T559C | 5' U5/leader | 167 | 0.867
T9594C | 3' R | 99 | 0.314
C9411T | 3' U3 | 324 | 0.891
T9430A | 3' U3 | 313 | 0.799
A241T | 5' U3 | 180 | 0.0758
C446T | 5' U3 | 231 | 0.836
A773T | 5' U5/leader | 180 | 0.0215
C373A | 5' U3 | 448 | 0.602
C754A | 5' U5/leader | 270 | 0.344
C358A | 5' U3 | 77 | 0.637
A431T | 5' U3 | 225 | 0.429
T256A | 5' U3 | 252 | 0.487
A9471T | 3' U3 | 318 | 0.489
T9574C | 3' R | 115 | 0.135
G9507A | 3' U3 | 202 | 0.999
C425T | 5' U3 | 236 | 0.409
C534T | 5' R | 235 | 0.205
C9461A | 3' U3 | 140 | 0.458
G9474A | 3' U3 | 487 | 1.85
A784T | 5' U5/leader | 295 | 0.0328
G402A | 5' U3 | 439 | 0.224
A9579G | 3' R | 140 | 0.158
G399T | 5' U3 | 186 | 0.264
G9520T | 3' U3 | 68 | 0.228
C354A | 5' U3 | 114 | 0.538
T154A | 5' U3 | 224 | 0.0457
T341C | 5' U3 | 258 | 0.570
G772T | 5' U5/leader | 55 | 0.0351
G744T | 5' U5/leader | 82 | 0.0707
A9413T | 3' U3 | 328 | 1.51
C422A | 5' U3 | 119 | 0.406
C9573A | 3' R | 121 | 0.807
G775T | 5' U5/leader | 120 | 0.113
T9430C | 3' U3 | 253 | 0.454
T9578G | 3' R | 30 | 0.222
C458T | 5' R | 111 | 0.435
G379T | 5' U3 | 497 | 0.148
C9434T | 3' U3 | 329 | 0.549
G9580T | 3' R | 199 | 0.569
G298T | 5' U3 | 366 | 0.196
C502T | 5' R | 169 | 0.286
T9458A | 3' U3 | 233 | 0.391
C207A | 5' U3 | 61 | 0.112
A781G | 5' U5/leader | 215 | 0.0989
G339A | 5' U3 | 385 | 0.223
T559A | 5' U5/leader | 187 | 0.516
G774A | 5' U5/leader | 280 | 0.559
C9462A | 3' U3 | 494 | 0.595
T463A | 5' R | 216 | 0.223
T9463G | 3' U3 | 68 | 0.174
G376A | 5' U3 | 214 | 0.458
T763A | 5' U5/leader | 171 | 0.237
A521T | 5' R | 180 | 0.536
G464C | 5' R | 51 | 0.946
T569A | 5' U5/leader | 49 | 0.290
C9467G | 3' U3 | 92 | 0.404
G407A | 5' U3 | 459 | 0.321
T9480C | 3' U3 | 191 | 0.186
C285T | 5' U3 | 397 | 0.105
C347A | 5' U3 | 366 | 0.302
T371A | 5' U3 | 358 | 0.137
G9486T | 3' U3 | 75 | 1.60
C295A | 5' U3 | 241 | 0.0992
G400T | 5' U3 | 208 | 0.413

Since each clone held several changes (about five per kb), neutral changes can read low. An index over 1, which the authors read as above wild type, was rare (1.9% of all changes in the genome). Nucleotide positions follow pNL4-3.